A mixed list of measured activities; the numbers were collected in NIAID ChemDB.

Shared fields: cytotoxicity tests; cell line: HEL; measure: CC50

Conditions beyond the fields shown may differ between rows. CCn: concentration that lowers growth or viability of the cells by n%.

| SMILES | value |
|---|---|
| CC(C)c1ccc(C(C)C)c(CS(=O)c2cccc[n+]2[O-])c1 | 11 µg/mL |
| Cc1ccn2c(CSCc3ccccc3Cl)cnc2c1 | 18 µg/mL |
| Nc1ncn(C[C@H](CO)OCP(=O)(O)O)c(=O)n1 | ≥140 µg/mL |
| CCCCc1cc2cn(COCCO)c(=O)nc2[nH]1 | >200 µM |
| Cc1ccc(C)n2c(CSCc3ccccc3)cnc12 | 3 µg/mL |
| O=c1c2ncn(COC(CO)CO)c2nc2[nH]c(-c3ccccc3)cn12 | >200 µg/mL |
| Cc1cc(-c2cccc([N+](=O)[O-])c2)cn2c(CSCCc3ccccc3)cnc12 | 43 µg/mL |
| Nc1ccn(C[C@@H](CO)OCP(=O)(O)O)c(=O)n1 | 80 µg/mL |
| CC(C)CS[C@@H]1C=C[C@H](n2cnc3c(N)ncnc32)C1 | 50 µg/mL |
| COc1ccc(C)cc1CSc1cccc[n+]1[O-] | 31 µg/mL |
| Cc1ccc2ncc(CSCc3ccccc3)n2c1 | 23 µg/mL |
| Nc1nc2c(ncn2[C@@H]2O[C@H](CO)[C@H]2CO)c(=O)[nH]1 | 189 µg/mL |
| C[C@@H](Cn1cnc(N)nc1=O)OCP(=O)(O)O | >50 µg/mL |
| Cc1ccc(CS(=O)(=O)c2c(C)ccc[n+]2[O-])c(C)c1 | 11 µg/mL |
| Nc1ncnc2c1ncn2[C@@H]1O[C@H](C=NOCc2ccccc2)[C@@H](O)[C@H]1O | 33 µg/mL |
| O=C1c2ccccc2C(=O)N1CCCC12CC3CC(CC(C3)C1)C2 | 30 µg/mL |
| Cc1ccc(C)c(C(C(N)=O)S(=O)(=O)c2cccc[n+]2[O-])c1 | 15.6 µg/mL |
| Nc1ncnc2c1ncn2[C@@H]1O[C@H](/C=N/O)C[C@H]1O | >50 µg/mL |
| CCCCCCCc1cc2cn(COCCO)c(=O)nc2[nH]1 | 119 µM |
| Cc1ccc(C)c(C(Cl)S(=O)(=O)c2c(C)ccc[n+]2[O-])c1 | >100 µg/mL |
| CCCCCCCCCCCc1cc2cn(COCCO)c(=O)nc2o1 | 132 µM |
| Nc1nc2c(ncn2COCCO)c(=O)[nH]1 | 169 µg/mL |
| Cc1c(O)c(=O)ccn1[C@H]1CC[C@@H](CO)O1 | >900 µM |
| Nc1nc(N)c2ncn([C@@H]3O[C@H](CO)[C@H]3CO)c2n1 | 212 µg/mL |
| Cc1ccn2c(CSCc3ccccc3)c(C)nc2c1 | >50 µg/mL |
| Cc1cn([C@@H]2CO[C@H](CO)[C@@H](O)C2)c(=O)[nH]c1=O | >50 µg/mL |
| Nc1ncnc2c1ncn2[C@H]1C[C@H](O)[C@@H](C=O)O1 | >50 µg/mL |
| [O-][n+]1cccc(Cl)c1SCc1ccccc1 | >100 µg/mL |
| Nc1nccc2c1ncn2[C@@H]1C[C@H](O)[C@@H](O)[C@H]1O | >200 µg/mL |
| Nc1nc2c(ncn2COCCO)c(=O)[nH]1 | >844 µM |
| COC(=O)/C1=C/CC[C@](C)(O)[C@@H]2CC[C@@](C)(O2)C2C(=O)C(=C(C)[C@H]2O)CC1 | >50 µg/mL |
| COC(=O)[C@]1(C)CCC[C@]2(C)c3cc(Br)c4nc(C)[nH]c4c3CCC12 | 2.9 µg/mL |
| Cc1ccn2c(CSCc3ccc(Cl)cc3)cnc2c1 | 19 µg/mL |
| O=c1[nH]c(=O)n([C@H]2C[C@H](O)[C@@H](CO)O2)cc1/C=C/Br | >601 µM |
| Nc1ncnc2c1ncn2[C@@H]1O[C@H](C=NO)[C@@H](O)[C@H]1O | 0.7 µg/mL |
| Cc1cccn2c(CSCc3ccccc3)c(-c3ccccc3)nc12 | 13 µg/mL |
| CCCCCCCC/C=C/CCCCCCCC(=O)OCC(CO)OCn1cnc2c(=O)[nH]c(N)nc21 | 135 µM |
| CCCCCc1cc2cn(COCCO)c(=O)nc2o1 | >200 µM |
| Nc1ncnc2c1ncn2[C@@H]1CO[C@H](CO)[C@@H](O)C1 | >50 µg/mL |
| O=C(CC1CCCCC1)N(O)c1ccc(Cl)cc1 | 129 µg/mL |
| O=S(=O)(Cc1c(Cl)c(Cl)c(Cl)c(Cl)c1Cl)c1cccc[n+]1[O-] | 1.2 µg/mL |
| Cc1ccn2c(CSCc3ccccc3)cnc2c1 | 45 µg/mL |
| O=c1[nH]c(=O)n([C@H]2C[C@H](O)[C@@H](CO)O2)cc1I | >50 µg/mL |
| O=S(=O)(c1ccc(Cl)c[n+]1[O-])C(Cl)c1ccccc1 | 2.3 µg/mL |
| Nc1nc2c(ncn2COC(CO)CO)c(=O)[nH]1 | 85 µg/mL |
| O=S(=O)(Cc1cccc(F)c1)c1cccc[n+]1[O-] | 19 µg/mL |
| COC(=O)[C@]1(C)CCC[C@]2(C)c3ccc4[nH]c(C)nc4c3CCC12 | 15.1 µg/mL |
| Cc1cn([C@@H]2OC(O[Si](C)(C)C(C)(C)C)C3(OS(=O)(=O)C=C3NCCC(=O)OCc3ccccc3)C2O[Si](C)(C)C(C)(C)C)c(=O)n(C)c1=O | >200 µM |
| CCOc1cccnc1SCc1ccccc1 | >20 µg/mL |
| Cc1cc(Br)cn2c(CSCCc3ccccc3)cnc12 | 28 µg/mL |
| Cc1ccc(C)c(C(Cc2ccccc2)Sc2cccc[n+]2[O-])c1 | 1.6 µg/mL |
| FC(F)(F)c1cc(Cl)c2ncc(CSCc3ccccc3)n2c1 | 40 µg/mL |
| Cc1ccc(C)c(C(C)S(=O)(=O)c2ccccn2)c1 | 3.1 µg/mL |
| c1ccc(CCSCc2cnc3ccc(-c4ccccc4)cn23)cc1 | 9.9 µg/mL |
| Cc1ccc(C)c(CSc2c(O)ccc[n+]2[O-])c1 | 7.7 µg/mL |
| O=C1c2ccccc2C(=O)N1CCCC1C2CC3CC(C2)CC1C3 | 34 µM |
| N#C/C(=C/c1ccc(Cl)cc1Cl)Sc1cccc[n+]1[O-] | 3.5 µg/mL |
| Cc1c(O)c(=O)ccn1[C@@H]1CS[C@@H](CO)O1 | >400 µM |
| O=S(Cc1ccccc1)c1cccc[n+]1[O-] | >50 µg/mL |
| Cc1cc(-c2cccs2)c2ncc(CSCCc3ccccc3)n2c1 | >50 µg/mL |
| O=S(=O)(Cc1ccccc1)c1ccccn1 | 68 µg/mL |
| O=C(CCC1CCCCC1)N(O)c1ccc(Cl)cc1 | 4.7 µg/mL |
| N#C/C(=C/c1ccccc1)Sc1cccc[n+]1[O-] | 8.7 µg/mL |
| Nc1ncnc2c1ncn2[C@H]1C[C@H](O)[C@@H](/C=N/O)O1 | 14 µg/mL |
| COC(=O)Nc1nc2c3c(ccc2[nH]1)[C@@]1(C)CCC[C@@](C)(C(=O)OC)C1CC3 | 4.5 µg/mL |
| Cc1ccc(C)c(C(CC(C)C)S(=O)(=O)c2cccc[n+]2[O-])c1 | 1.2 µg/mL |
| COC(=O)[C@]1(C)CCC[C@]2(C)c3ccc4[nH]c(C(F)(F)F)nc4c3CCC12 | 10.8 µg/mL |
| Cc1ccc(CS(=O)c2cccc[n+]2[O-])cc1 | 11 µg/mL |

4 of the rows above, restated:

Nc1ncnc2c1ncn2[C@@H]1CO[C@H](CO)[C@@H](O)C1 ; value: >50 µg/mL
Nc1nc2c(ncn2[C@@H]2O[C@H](CO)[C@H]2CO)c(=O)[nH]1 ; value: 189 µg/mL
CC(C)CS[C@@H]1C=C[C@H](n2cnc3c(N)ncnc32)C1 ; value: 50 µg/mL
[O-][n+]1cccc(Cl)c1SCc1ccccc1 ; value: >100 µg/mL